The values below come from patent publication US20020068702 (published 2002).

* marks the point of attachment. OtBu = CC(C)(C)O*

Series [1] in a line: general procedure: Fmoc solid-phase peptide synthesis; 2-chlorotrityl. Conditions: whole synthesis.
The nature of series [2]: general procedure: Fmoc solid-phase peptide synthesis; MBHA. Conditions: whole synthesis.

The substance Ac-E(OtBu)E(OtBu)VVP-OH showed an isolated yield in series [1] of 65%. Substance “Ac-Glu-Glu-Val-Val-Pro-nVal(CO)-Gly-Met-Ser-Tyr-Ser-NH2” showed an isolated yield in series [2] of 26%.
